Assay results taken from patent US8012970B2, “Derivatives of 1-{[1,5-bis(4-chlorophenyl)-2-methyl-1H-pyrrol-3-yl]methyl}-4-methylpiperazine, synthesis process and uses thereof” (priority 2005, dated 2011).

Tested on: M. tuberculosis 103471
Test: Antimycobacterial activity, MIC in Middlebrook 7H9 broth (NCCLS procedure)
Type: cell-based
Conditions: MNTD50/MIC ratio, VERO cells vs M. tuberculosis 103471

**Q.** `Cc1c(CN2CCSCC2)cc(-c2ccc(F)cc2)n1-c1ccccc1F` [Compound 7c, N-(o-fluorophenyl)-2-methyl-3-thiomorpholinomethyl-5-(p-fluorophenyl)pyrrole] was tested. Which “Protection Index (PI)” value did it give?
**A.** 16
